# Laboratory results reported in patent publication US11014971B2, “Peptibodies, compositions thereof, and methods of treating atrial fibrillation” (University of South Florida, priority 2016, dated 2021).
# Tested on: Isolated Langendorff-perfused sheep hearts with tachypacing induced chronic/persistent atrial fibrillation
# Assay: Optical mapping of isolated Langendorff-perfused sheep hearts with tachypacing induced chronic/persistent atrial fibrillation
# [1] = 4 hearts, baseline vs right before termination
# [2] = pacing at 2.5 HZ, 200 nM, baseline vs after AF termination
structure (smiles),measurement,setting,value
CC[C@H](C)[C@@H]1NC(=O)[C@H](CCCNC(=N)N)NC(=O)[C@H](CC(N)=O)NC(=O)[C@@H]2CSSC[C@@H](C(=O)NCC(=O)N[C@@H](CCCCN)C(=O)N[C@@H](CCCCN)C(N)=O)NC(=O)[C@H](CCCCN)NC(=O)[C@H](CCCCN)NC(=O)[C@H](Cc3c[nH]c4ccccc34)NC(=O)[C@H](CSSC[C@H](NC(=O)[C@H](CC(C)C)NC(=O)[C@H](C)N)C(=O)N[C@@H](CC(N)=O)C(=O)N2)NC(=O)[C@H](CCC(N)=O)NC(=O)[C@H](Cc2c[nH]cn2)NC(=O)[C@@H]2CCCN2C(=O)[C@H]([C@@H](C)CC)NC(=O)[C@H]([C@@H](C)CC)NC1=O [TertiapinQ],Time of application until heart reverted to normal sinus rhythm,"200 nM, one example heart",4 min
same,"Dominant frequency (DF) in PLA, LA and RA, 2 minutes after application","200 nM, one example heart, 2 minutes",decrease
same,"Dominant frequency (DF) in the PLA, LA, and RA",[1],significantly decreased
same,Singularity point (SP) density in the PLA,[1],significantly decreased
same,Hearts in which sinus rhythm was restored,100 to 200 nM,4 out of 5
same,"APD50 in the PLA, LA, and RA",[2],significantly prolonged
same,"APD75 in the PLA, LA, and RA",[2],significantly prolonged
